According to article PMC7894572 (Chemmedchem, 2020):

Target: SARS‐CoV PL^pro (Severe acute respiratory syndrome coronavirus, UniProt P0C6X7)
Experiment: biochemical

Compound: Cc1ccc(N)cc1C(=O)N[C@H](C)c1cccc2ccccc12 [Compound 2 b, (R )‐5‐Amino‐2‐methyl‐N‐[1‐(naphth‐1‐yl)ethyl]benzamide hydrochloride, reference compound]
- pIC50: 5.96

pIC50: −log10 of the molar value. Counter-ions that a name gives are not always drawn.
